Assay results as given in patent publication US20240109955A1 (published 2024).
Like-named read-outs stand apart in the source and are kept apart here.

Tests used:
Experiment in all cases: cell-based or functional assay
[1] = target: SARS-CoV-2 spike protein, D614G spike protein mutant (SARS-CoV-2, UniProt P0DTC2 14-1273)
[2] = target: SARS-CoV-2 spike protein, original Wuhan strain (WA1) (SARS-CoV-2, UniProt P0DTC2 14-1273)
[3] = target: SARS-CoV-2 spike protein, D614G mutant (SARS-CoV-2, UniProt P0DTC2 14-1273)
[4] = target: SARS-CoV-2 spike protein, original Wuhan strain (WA1) (SARS-CoV-2, UniProt P0DTC2 14-1273); remark: listed apart in the source

B1: MX1086 (antibody)
chain 1: EIVMTQSPAILSVSPGERATLSCRASQSVAINLAWYQQKPGQAPRLLIYAASSRATGIPGRFSGSGSETNFTLTISSLQSGDFAVYYCQQYITWPPSYTFGQGTKLEIKGGSSGDTVMTQSPLSLPVTPGEPASISCRSSQSLLNSNGYNYLDWYVQKPGQSPQLLIYLGSNRASGVPDRFSGSGSGTDFTLKISRVEAEDVGVYYCMQPLQTPLFTFGPGTKVEIKGGGGSGGSGSGGGGSASGSGQVTLRESGPALVKPTQTLTLTCTFSGFSLSTRGVCVSWIRQPPGKALEWLAFIDWDDDKYYNTSLKTRLTISKDTSKNQVVLTMTNVHPVDTATYYCARISSHHGSSWCTTFDYWGQGALVTVSAGGSSGEVQLVESGGALIQPGGSLRLSCAASGIIVSANYMSWVRQAPGKGLEWVSVIYSGGSTFYADSVKGRFTISRDNSKNTLYLEMNSLRAEDTAVYYCARDAPILGVSDWGQGTLVTVSSASGGSGDKTHTCPPCPAPELLGGPSVFLFPPKPKDTLMISRTPEVTCVVVDVSHEDPEVKFNWYVDGVEVHNAKTKPREEQYNSYVVSVLTVLHQDWLNGKEYKCKVSNKALPAPIEKTISKAKGQPREPQVCTLPPSRDELTKNQVSLSCAVKGFYPSDIAVEWESNGQPENNYKTTPPVLDSDGSFFLVSKLTVDKSRWQQGNVFSCSVLHEALHSHYTQKSLSLSPG
chain 2: QTVVTQEPSFSVSPGGTVTLTCGLSSGSVSTAYFPSWYQQTPGQAPRTLIYGTNTRSSGVPDRFSGSILGNKAALTITGAQADDESDYYCVLYMGRGIVVFGGGTKLTVLGGSSGEIVLTQSPGTLSLSPGETATLSCRASQSFSSDLAWYQQKPGQAPRLLIYGASSRATGIPDRFSGSGSGTDFTLTISRLEPADFAVYYCQQYGSSPPVTFGGGTKVEIKGGGGSGGSGSGGGGSASGSGEVQLVESGGGLIQPGGSLRLSCAASGVIVSYNYMNWVRQAPGKGLEWVSVIYSGGSTFYADSVRGRFTISRDNSKNTLYLQMNSLRAEDTAVYYCARDLGPAGAFDIWGLGTMVTVSSGGSSGQVQLVESGGGVVQPGRSLRLSCAASGFTLSSYGMHWVRQAPGKGLEWVAVISYDGSNKYYVDSVKGRFTISRDNSKNTLYLQMNSLRAEDTAVYYCRWAYWELLPDYYYGMDVWGQGTTVTVSSASGGSGDKTHTCPPCPAPELLGGPSVFLFPPKPKDTLMISRTPEVTCVVVDVSHEDPEVKFNWYVDGVEVHNAKTKPREEQYNSYVVSVLTVLHQDWLNGKEYKCKVSNKALPAPIEKTISKAKGQPREPQVYTLPPCRDELTKNQVSLWCLVKGFYPSDIAVEWESNGQPENNYKTTPPVLDSDGSFFKKLTVDKSRWQQGNVFSCSVLHEALHSHYTQKSLSLSPG
- IC50, pseudovirus neutralization [1]: 0.0185 µg/mL
- IC80, pseudovirus neutralization [1]: 0.0442 µg/mL
- IC50, pseudovirus neutralization [2]: 0.00509 µg/mL
- IC80, pseudovirus neutralization [2]: 0.0281 µg/mL

B2: A23-58.1HC/58.1LC_93VGLTG (antibody, V domains shown)
VH: QMQLVQSGPEVKKPGTSVKVSCKASGFTFTSSAVQWVRQRQRLEWIGWIVVGSGNTNYAQKFQERVTITRDMSTSTAYMELSSLRSEDTAVYYCAAPNCSNVVCYDGFDIWGQGTMVTVSS
VL: EIVLTQSPGTLSLSPGERATLSCRASQSVSSSYLAWYQQKPGQAPRLLIYSASSRATGIPDRFSGSGSGTDFTLTISRLEPEDFAVYFCQQYVGLTGWTFGQGTKVEIK
- IC50, pseudovirus neutralization [3]: 0 nM
- IC80, pseudovirus neutralization [3]: 2 nM

B3: MX1078 (other)
chain 1: DTVMTQSPLSLPVTPGEPASISCRSSQSLLNSNGYNYLDWYVQKPGQSPQLLIYLGSNRASGVPDRFSGSGSGTDFTLKISRVEAEDVGVYYCMQPLQTPLFTFGPGTKVEIKGGSSGEIVLTQSPGTLSLSPGETATLSCRASQSFSSDLAWYQQKPGQAPRLLIYGASSRATGIPDRFSGSGSGTDFTLTISRLEPADFAVYYCQQYGSSPPVTFGGGTKVEIKGGGGSGGSGSGGGGSASGSGEVQLVESGGGLIQPGGSLRLSCAASGVIVSYNYMNWVRQAPGKGLEWVSVIYSGGSTFYADSVRGRFTISRDNSKNTLYLQMNSLRAEDTAVYYCARDLGPAGAFDIWGLGTMVTVSSGGSSGQVTLRESGPALVKPTQTLTLTCTFSGFSLSTRGVCVSWIRQPPGKALEWLAFIDWDDDKYYNTSLKTRLTISKDTSKNQVVLTMTNVHPVDTATYYCARISSHHGSSWCTTFDYWGQGALVTVSAASGGSGDKTHTCPPCPAPELLGGPSVFLFPPKPKDTLMISRTPEVTCVVVDVSHEDPEVKFNWYVDGVEVHNAKTKPREEQYNSYVVSVLTVLHQDWLNGKEYKCKVSNKALPAPIEKTISKAKGQPREPQVYTLPPCRDELTKNQVSLWCLVKGFYPSDIAVEWESNGQPENNYKTTPPVLDSDGSFFKKLTVDKSRWQQGNVFSCSVLHEALHSHYTQKSLSLSPG
chain 2: DTVMTQSPLSLPVTPGEPASISCRSSQSLLNSNGYNYLDWYVQKPGQSPQLLIYLGSNRASGVPDRFSGSGSGTDFTLKISRVEAEDVGVYYCMQPLQTPLFTFGPGTKVEIKGGSSGQTVVTQEPSFSVSPGGTVTLTCGLSSGSVSTAYFPSWYQQTPGQAPRTLIYGTNTRSSGVPDRFSGSILGNKAALTITGAQADDESDYYCVLYMGRGIVVFGGGTKLTVLGGGGSGGSGSGGGGSASGSGQVQLVESGGGVVQPGRSLRLSCAASGFTLSSYGMHWVRQAPGKGLEWVAVISYDGSNKYYVDSVKGRFTISRDNSKNTLYLQMNSLRAEDTAVYYCRWAYWELLPDYYYGMDVWGQGTTVTVSSGGSSGQVTLRESGPALVKPTQTLTLTCTFSGFSLSTRGVCVSWIRQPPGKALEWLAFIDWDDDKYYNTSLKTRLTISKDTSKNQVVLTMTNVHPVDTATYYCARISSHHGSSWCTTFDYWGQGALVTVSAASGGSGDKTHTCPPCPAPELLGGPSVFLFPPKPKDTLMISRTPEVTCVVVDVSHEDPEVKFNWYVDGVEVHNAKTKPREEQYNSYVVSVLTVLHQDWLNGKEYKCKVSNKALPAPIEKTISKAKGQPREPQVCTLPPSRDELTKNQVSLSCAVKGFYPSDIAVEWESNGQPENNYKTTPPVLDSDGSFFLVSKLTVDKSRWQQGNVFSCSVLHEALHSHYTQKSLSLSPG
- IC50, pseudovirus neutralization [4]: 0.0151 µg/mL
- IC80, pseudovirus neutralization [4]: 0.0464 µg/mL

B4: MX831 (bispecific antibody)
chain: DIQMTQSPSSVSASVGDRVIITCRASQGISSWLAWYQQKPGKAPKVLIYDASSLQSGVPSRFSGSGYGTDFTLTISSLQPEDSATYYCQQAKSFPITFGQGTRLEIKGGSSGEIVLTQSPGTLSLSPGERATLSCRASQSVSSSYLAWYQQKPGQAPRLLIYSASSRATGIPDRFSGSGSGTDFTLTISRLEPEDFAVYFCQQYGGLTGWTFGQGTKVEIKGGGGSGGSGSGGGGSASGSGQMQLVQSGPEVKKPGTSVKVSCKASGFTFTSSAVQWVRQRQRLEWIGWIVVGSGNTNYAQKFQERVTITRDMSTSTAYMELSSLRSEDTAVYYCAAPNCSNVVCYDGFDIWGQGTMVTVSSGGSSGQVQLVESGGGVVQPGRSLRLSCAASGFTFSSYAFHWVRQAPGKGLEWVAVISYDGSNQYYADSVKGRFTISRDNSKNTLYLQMNSLRADDTAVYYCARDLAIAVAGTWHYYNGMDVWGQGTTVTVSSASGGSGDKTHTCPPCPAPELLGGPSVFLFPPKPKDTLMISRTPEVTCVVVDVSHEDPEVKFNWYVDGVEVHNAKTKPREEQYNSYVVSVLTVLHQDWLNGKEYKCKVSNKALPAPIEKTISKAKGQPREPQVYTLPPSRDELTKNQVSLTCLVKGFYPSDIAVEWESNGQPENNYKTTPPVLDSDGSFFKKLTVDKSRWQQGNVFSCSVLHEALHSHYTQKSLSLSPG
- IC50, pseudovirus neutralization [3]: 3 nM

B5: MX830 + 831 (other)
chain 1: QTVVTQEPSFSVSPGGTVTLTCGLSSGSVSTAYFPSWYQQTPGQAPRTLIYGTNTRSSGVPDRFSGSILGNKAALTITGAQADDESDYYCVLYMGRGIVVFGGGTKLTVLGGSSGEIVLTQSPGTLSLSPGERATLSCRASQSVSSSYLAWYQQKPGQAPRLLIYSASSRATGIPDRFSGSGSGTDFTLTISRLEPEDFAVYFCQQYGGLTGWTFGQGTKVEIKGGGGSGGSGSGGGGSASGSGQMQLVQSGPEVKKPGTSVKVSCKASGFTFTSSAVQWVRQRQRLEWIGWIVVGSGNTNYAQKFQERVTITRDMSTSTAYMELSSLRSEDTAVYYCAAPNCSNVVCYDGFDIWGQGTMVTVSSGGSSGQVQLVESGGGVVQPGRSLRLSCAASGFTLSSYGMHWVRQAPGKGLEWVAVISYDGSNKYYVDSVKGRFTISRDNSKNTLYLQMNSLRAEDTAVYYCRWAYWELLPDYYYGMDVWGQGTTVTVSSASGGSGDKTHTCPPCPAPELLGGPSVFLFPPKPKDTLMISRTPEVTCVVVDVSHEDPEVKFNWYVDGVEVHNAKTKPREEQYNSYVVSVLTVLHQDWLNGKEYKCKVSNKALPAPIEKTISKAKGQPREPQVYTLPPSRDELTKNQVSLTCLVKGFYPSDIAVEWESNGQPENNYKTTPPVLDSDGSFFKKLTVDKSRWQQGNVFSCSVLHEALHSHYTQKSLSLSPG
chain 2: DIQMTQSPSSVSASVGDRVIITCRASQGISSWLAWYQQKPGKAPKVLIYDASSLQSGVPSRFSGSGYGTDFTLTISSLQPEDSATYYCQQAKSFPITFGQGTRLEIKGGSSGEIVLTQSPGTLSLSPGERATLSCRASQSVSSSYLAWYQQKPGQAPRLLIYSASSRATGIPDRFSGSGSGTDFTLTISRLEPEDFAVYFCQQYGGLTGWTFGQGTKVEIKGGGGSGGSGSGGGGSASGSGQMQLVQSGPEVKKPGTSVKVSCKASGFTFTSSAVQWVRQRQRLEWIGWIVVGSGNTNYAQKFQERVTITRDMSTSTAYMELSSLRSEDTAVYYCAAPNCSNVVCYDGFDIWGQGTMVTVSSGGSSGQVQLVESGGGVVQPGRSLRLSCAASGFTFSSYAFHWVRQAPGKGLEWVAVISYDGSNQYYADSVKGRFTISRDNSKNTLYLQMNSLRADDTAVYYCARDLAIAVAGTWHYYNGMDVWGQGTTVTVSSASGGSGDKTHTCPPCPAPELLGGPSVFLFPPKPKDTLMISRTPEVTCVVVDVSHEDPEVKFNWYVDGVEVHNAKTKPREEQYNSYVVSVLTVLHQDWLNGKEYKCKVSNKALPAPIEKTISKAKGQPREPQVYTLPPSRDELTKNQVSLTCLVKGFYPSDIAVEWESNGQPENNYKTTPPVLDSDGSFFKKLTVDKSRWQQGNVFSCSVLHEALHSHYTQKSLSLSPG
- IC50, pseudovirus neutralization [3]: 2 nM
- IC80, pseudovirus neutralization [3]: 4 nM
